Several values for one entry are separate records, joined by “and”; a condition that tells them apart may be missing. Equal entries are not always repeated. Square brackets hold non-standard residues; d marks the D form. Ends that are not written are not given here. Peptide text beside a SMILES is read from it. Nspe(4-Br) = C[C@H](NCC(=O)O)c1ccc(Br)cc1; N(tridecyl)Gly = CCCCCCCCCCCCCNCC(=O)O; Nspe = C[C@H](NCC(=O)O)c1ccccc1; NDecylGly = CCCCCCCCCCNCC(=O)O; Nlys = NCCCCNCC(=O)O
Tests used:
Enterobacteriaceae = settings: for Selectivity ratio SRE: HD10 / geometric mean MIC; for Therapeutic index TIE: HD50 / geometric mean MIC
[1] = system: ESKAPEE pathogens (all bacteria); settings: for Selectivity ratio SR All bacteria: HD10 / geometric mean MIC; for Therapeutic index TI All bacteria: HD50 / geometric mean MIC
Description: (§1) Briefly, bacteria were suspended in cation-adjusted Mueller–Hinton broth (CAMHB; Oxoid, UK) for antibiotics, or MHB (Oxoid, UK) for peptidomimetics to obtain 5 × 10^5 colony forming unit (CFU) ml^−1. […] Positive controls contained only microbes, and blanks contained only media. Microbial suspensions (100 µl) were added to wells, plates wrapped, and incubated at 37°C, 120 rpm for 16–20 h. After incubation, suspensions were removed, log10 diluted, and plated on Trypticase Soya Agar with phosphatidylcholine and Tween 80 to determine minimum bactericidal or fungicidal concentration (MBC or MFC). […] Geometric mean MIC of the peptoids were calculated to evaluate the broad overview of antimicrobial activity across the pathogens.
(§2) The therapeutic indices (TIs) of the compounds were calculated with the use of following formula: […]

C. auris strains = settings: for Selectivity ratio SRCA: HD10 / geometric mean MIC; for Therapeutic index TICA: HD50 / geometric mean MIC
MBL-producing bacteria = settings: for Selectivity ratio SR MBL: HD10 / geometric mean MIC; for Therapeutic index TI MBL: HD50 / geometric mean MIC
Description: as §1
The test was performed as per the manufacturer’s instructions. Briefly, the strips were applied to a lawn culture of bacteria maintained at 1.5 × 10^8 CFU ml^−1 on Mueller–Hinton agar (Oxoid, UK) and incubated for 20 h at 37°C.
as §2

Molecule: KNKRKRRRRRRGGRRRR [Mel4]
- Selectivity ratio SRE (Enterobacteriaceae): >1.6
- Selectivity ratio SR All bacteria [1]: >1.7
- Selectivity ratio SRCA (C. auris strains): >11.6
- Therapeutic index TICA (C. auris strains): > 11.6
- Selectivity ratio SR MBL (MBL-producing bacteria): >1.6

Molecule: C[C@@H](c1ccc(Br)cc1)N(CC(=O)N(CCCCN)CC(=O)N(CC(=O)N(CC(=O)N(CCCCN)CC(N)=O)[C@@H](C)c1ccc(Br)cc1)[C@@H](C)c1ccc(Br)cc1)C(=O)CN(C(=O)CNCCCCN)[C@@H](C)c1ccc(Br)cc1 [TM14] (H-[Nlys][Nspe(4-Br)][Nspe(4-Br)][Nlys][Nspe(4-Br)][Nspe(4-Br)][Nlys]-NH2)
- Selectivity ratio SRE (Enterobacteriaceae): 0.3
- Therapeutic index TIE (Enterobacteriaceae): 0.8
- Selectivity ratio SR All bacteria [1]: 0.5
- Therapeutic index TI All bacteria [1]: 1.2
- Selectivity ratio SRCA (C. auris strains): 1.2
- Therapeutic index TICA (C. auris strains): 3.1
- Selectivity ratio SR MBL (MBL-producing bacteria): 0.4
- Therapeutic index TI MBL (MBL-producing bacteria): 1.0

Molecule: C[C@@H](c1ccc(Br)cc1)N(CC(=O)N(CCCCN)CC(=O)N(CC(=O)N(CC(=O)N(CCCCN)CC(N)=O)[C@@H](C)c1ccc(Br)cc1)[C@@H](C)c1ccccc1)C(=O)CN(C(=O)CNCCCCN)[C@@H](C)c1ccccc1 [TM12] (H-[Nlys][Nspe][Nspe(4-Br)][Nlys][Nspe][Nspe(4-Br)][Nlys]-NH2)
- Selectivity ratio SRE (Enterobacteriaceae): > 1 and 1.7
- Therapeutic index TIE (Enterobacteriaceae): >5.4
- Selectivity ratio SR All bacteria [1]: 2.6
- Therapeutic index TI All bacteria [1]: >8.2
- Selectivity ratio SRCA (C. auris strains): 5.1
- Therapeutic index TICA (C. auris strains): >16.4
- Therapeutic index TI MBL (MBL-producing bacteria): > 3 and >4.1

Molecule: C[C@@H](c1ccccc1)N(CC(N)=O)C(=O)CN(C(=O)CN(CCCCN)C(=O)CN(C(=O)CN(C(=O)CN(CCCCN)C(=O)CN(C(=O)CN(C(=O)CN(CCCCN)C(=O)CN(C(=O)CN(C(=O)CNCCCCN)[C@@H](C)c1ccccc1)[C@@H](C)c1ccccc1)[C@@H](C)c1ccccc1)[C@@H](C)c1ccccc1)[C@@H](C)c1ccccc1)[C@@H](C)c1ccccc1)[C@@H](C)c1ccccc1 [TM1] (H-[Nlys][Nspe][Nspe][Nlys][Nspe][Nspe][Nlys][Nspe][Nspe][Nlys][Nspe][Nspe]-NH2)
- Selectivity ratio SRE (Enterobacteriaceae): 0.3
- Therapeutic index TIE (Enterobacteriaceae): 1.9
- Selectivity ratio SR All bacteria [1]: 0.6
- Therapeutic index TI All bacteria [1]: 3.4
- Selectivity ratio SRCA (C. auris strains): 1.4
- Therapeutic index TICA (C. auris strains): 5.7
- Selectivity ratio SR MBL (MBL-producing bacteria): 0.7
- Therapeutic index TI MBL (MBL-producing bacteria): > 3 and 4.1

Molecule: C[C@@H](c1ccc(Br)cc1)N(CC(N)=O)C(=O)CN(C(=O)CN(CCCCN)C(=O)CN(C(=O)CN(C(=O)CNCCCCN)[C@@H](C)c1ccccc1)[C@@H](C)c1ccc(Br)cc1)[C@@H](C)c1ccccc1 [TM2] (H-[Nlys][Nspe][Nspe(4-Br)][Nlys][Nspe][Nspe(4-Br)]-NH2)
- Selectivity ratio SRE (Enterobacteriaceae): 0.3
- Therapeutic index TIE (Enterobacteriaceae): 1.1
- Selectivity ratio SR All bacteria [1]: 0.8
- Therapeutic index TI All bacteria [1]: 2.5
- Selectivity ratio SRCA (C. auris strains): 1.8
- Therapeutic index TICA (C. auris strains): 5.8
- Selectivity ratio SR MBL (MBL-producing bacteria): 0.7
- Therapeutic index TI MBL (MBL-producing bacteria): 2.2

Molecule: CCCCCCCCCCCCCNCC(=O)N(CCCCN)CC(=O)N(CC(=O)N(CC(=O)N(CCCCN)CC(=O)N(CCCCN)CC(N)=O)[C@@H](C)c1ccccc1)[C@@H](C)c1ccccc1 [TM15] (H-[N(tridecyl)Gly][Nlys][Nspe][Nspe][Nlys][Nlys]-NH2)
- Selectivity ratio SRE (Enterobacteriaceae): 0.5
- Therapeutic index TIE (Enterobacteriaceae): 1.7
- Selectivity ratio SR All bacteria [1]: 0.7
- Therapeutic index TI All bacteria [1]: 2.7
- Selectivity ratio SRCA (C. auris strains): 6
- Therapeutic index TICA (C. auris strains): 22.2
- Selectivity ratio SR MBL (MBL-producing bacteria): 0.4
- Therapeutic index TI MBL (MBL-producing bacteria): 1.6

Molecule: C[C@@H](c1ccccc1)N(CC(N)=O)C(=O)CN(CCCCN)C(=O)CN(C(=O)CN(C(=O)CN(CCCCN)C(=O)CN(C(=O)CN(C(=O)CN(CCCCN)C(=O)CN(C(=O)CN(C(=O)CNCCCCN)[C@@H](C)c1ccccc1)[C@@H](C)c1ccccc1)[C@@H](C)c1ccccc1)[C@@H](C)c1ccccc1)[C@@H](C)c1ccccc1)[C@@H](C)c1ccccc1 [TM6] (H-[Nlys][Nspe][Nspe][Nlys][Nspe][Nspe][Nlys][Nspe][Nspe][Nlys][Nspe]-NH2)
- Selectivity ratio SRE (Enterobacteriaceae): > 1 and 1.5
- Therapeutic index TIE (Enterobacteriaceae): >8.8
- Selectivity ratio SR All bacteria [1]: 2.5
- Therapeutic index TI All bacteria [1]: >14.5
- Selectivity ratio SRCA (C. auris strains): 5.5
- Therapeutic index TICA (C. auris strains): >32.4

Molecule: CCCCCCCCCCNCC(=O)N(CCCCN)CC(=O)N(CC(=O)N(CC(=O)N(CCCCN)CC(=O)N(CC(=O)N(CC(N)=O)[C@@H](C)c1ccccc1)[C@@H](C)c1ccccc1)[C@@H](C)c1ccccc1)[C@@H](C)c1ccccc1 [TM8] (H-[NDecylGly][Nlys][Nspe][Nspe][Nlys][Nspe][Nspe]-NH2)
- Selectivity ratio SRE (Enterobacteriaceae): > 1 and 0.7
- Therapeutic index TIE (Enterobacteriaceae): 2.5
- Selectivity ratio SR All bacteria [1]: 1.1
- Therapeutic index TI All bacteria [1]: 3.7
- Selectivity ratio SRCA (C. auris strains): 1.5
- Therapeutic index TICA (C. auris strains): 4.9
- Therapeutic index TI MBL (MBL-producing bacteria): > 3 and 3.5

Molecule: TLISWIKNKRKQRPRVSRRRRRRGGRRRR [Melimine]
- Selectivity ratio SRE (Enterobacteriaceae): >1.4
- Therapeutic index TIE (Enterobacteriaceae): >1.4
- Selectivity ratio SR All bacteria [1]: >1.9
- Therapeutic index TI All bacteria [1]: >1.9
- Selectivity ratio SRCA (C. auris strains): >11.6
- Therapeutic index TICA (C. auris strains): > 11.6
- Selectivity ratio SR MBL (MBL-producing bacteria): >1.6
- Therapeutic index TI MBL (MBL-producing bacteria): >1.6
